Compound potency records, mixed from different reports. Data source: NIAID ChemDB in PubChem.

Common to all: whole-cell or culture tests; organism: Mycobacterium avium complex; endpoint: MIC

Lines come from different laboratories, so protocols vary.

compound	strain	result
CO[C@H]1/C=C/O[C@@]2(C)Oc3c(C)c(O)c4c(=O)c(c5oc6cc(N7CCN(CC(C)C)CC7)cc(=O)c6nc5c4c3=C2O)NC(=O)/C(C)=C\C=C\[C@H](C)[C@H](O)[C@@H](C)[C@@H](O)[C@@H](C)[C@H](OC(C)=O)[C@@H]1C	N-945 (HIV+)	0.016 µg/mL
CCNC(=O)OCCN=c1ssc2ccccc12	AN2	8 µg/mL
CCc1c(CNc2cc(C)ccc2OC)cnc2nc(N)nc(N)c12	NJ168	≤0.13 µg/mL
CO[C@H]1/C=C/O[C@@]2(C)Oc3c(C)c(O)c4c(O)c(c5c(c4c3C2=O)NC2(CCN(CC(C)C)CC2)N=5)=NC(=O)/C(C)=C\C=C\[C@H](C)[C@H](O)[C@@H](C)[C@@H](O)[C@@H](C)[C@H](OC(C)=O)[C@@H]1C	ATCC49601	0.125 µg/mL
CC[C@H]1OC(=O)[C@H](C)[C@@H](O[C@H]2C[C@@](C)(OC)[C@@H](O)[C@H](C)O2)[C@H](C)[C@@H](O[C@@H]2O[C@H](C)C[C@H](N(C)C)[C@H]2O)[C@](C)(OC)C[C@@H](C)C(=O)[C@H](C)[C@@H](O)[C@]1(C)O	N-962 (HIV+)	2 µg/mL
OCCN=c1ssc2ccccc12	AN1	2 µg/mL
CO[C@H]1/C=C/O[C@@]2(C)Oc3c(C)c(O)c4c(O)c(c5c(c4c3C2=O)NC2(CCN(CC(C)C)CC2)N=5)=NC(=O)/C(C)=C\C=C\[C@H](C)[C@H](O)[C@@H](C)[C@@H](O)[C@@H](C)[C@H](OC(C)=O)[C@@H]1C	N-980 (HIV+)	0.125 µg/mL
CC(C)(C)NC(=O)OCCN=c1ssc2ccccc12	AN3	2 µg/mL
CN[C@@H]1[C@H](O[C@H]2[C@H](O[C@H]3[C@H](O)[C@@H](O)[C@H](N=C(N)N)[C@@H](O)[C@@H]3N=C(N)N)O[C@@H](C)[C@]2(O)C=O)O[C@@H](CO)[C@H](O)[C@H]1O	N-962 (HIV+)	4 µg/mL
CCc1c(CNc2cc(OC)ccc2OC)cnc2nc(N)nc(N)c12	NJ3404	≤0.13 µg/mL
Cc1onc(-c2ccccc2Cl)c1C(=O)N[C@@H]1C(=O)N2[C@@H]1SC(C)(C)[C@@H]2C(=O)O	CIPT 140310002	10 µg/mL
CC(C)NC(=O)OCCn1sc2ccccc2c1=O	ATCC 15769	16 µg/mL
CCNNC(=O)O[C@H]1[C@H](O[C@@H]2[C@@H](C)[C@H](O[C@H]3C[C@@](C)(OC)[C@@H](OC(C)=O)[C@H](C)O3)[C@@H](C)C(=O)O[C@H](CC)[C@@](C)(O)[C@H](O)[C@@H](C)/C(=N/OCCCC3CCCCC3)[C@H](C)CC2(C)O)O[C@H](C)C[C@@H]1N(C)C	20096 (clarithromycin-resistant)	3.13 µg/mL
Cc1c(CNc2ccc3c(c2)Cc2ccccc2-3)cnc2nc(N)nc(N)c12	NJ168	≤0.13 µg/mL
CN[C@@H]1[C@H](O[C@H]2[C@H](O[C@H]3[C@H](O)[C@@H](O)[C@H](N=C(N)N)[C@@H](O)[C@@H]3N=C(N)N)O[C@@H](C)[C@]2(O)C=O)O[C@@H](CO)[C@H](O)[C@H]1O	CIPT 140310012	6 µg/mL
CCC(=O)O[C@H]1[C@H](C)OC(O[C@H]2[C@H](C)[C@@H](O[C@@H]3O[C@H](C)C[C@H](N(C)C)[C@H]3O)C(C)(O)C[C@@H](C)/C(=N\OCCCOc3ccccc3)[C@H](C)[C@@H](O)[C@](C)(O)[C@@H](CC)OC(=O)[C@@H]2C)C[C@@]1(C)OC	20096 (clarithromycin-resistant)	0.78 µg/mL
CC1(C)N=C(N)N=C(N)N1OCCCOc1cc(Cl)c(Cl)cc1Cl	DW14	1 µg/mL
CC[C@H]1OC(=O)[C@H](C)[C@@H](O[C@H]2C[C@@](C)(OC)[C@@H](OC(C)=O)[C@H](C)O2)[C@H](C)[C@@H](O[C@@H]2O[C@H](C)C[C@H](N(C)C)[C@H]2OC(=O)NNCc2ccc(OC)cc2)C(C)(O)C[C@@H](C)/C(=N\OCCCC2CCCCC2)[C@H](C)[C@@H](O)[C@]1(C)O	20092 (clarithromycin-resistant)	0.78 µg/mL
Cc1c(CSc2cccc(Cl)c2)cnc2nc(N)nc(N)c12	NJ3404	≤0.13 µg/mL
C[C@@H](O)[C@H]1C(=O)N2C(C(=O)O)=C(SCCN=CN)C[C@H]12	CIPT 140310003 (rough)	>10 µg/mL
CC[C@H]1OC(=O)[C@H](C)[C@@H](O[C@H]2C[C@@](C)(OC)[C@@H](OC(C)=O)[C@H](C)O2)[C@H](C)[C@@H](O[C@@H]2O[C@H](C)C[C@H](N(C)C)[C@H]2O)C(C)(O)C[C@@H](C)/C(=N\OCCCOc2ccccc2)[C@H](C)[C@@H](O)[C@]1(C)O	20092 (clarithromycin-resistant)	0.78 µg/mL
CCCCNC(=O)OCCn1sc2ccccc2c1=S	AN3	2 µg/mL
CO[C@H]1/C=C/O[C@@]2(C)Oc3c(C)c(O)c4c(O)c(c5c(c4c3C2=O)NC2(CCN(CC(C)C)CC2)N=5)=NC(=O)/C(C)=C\C=C\[C@H](C)[C@H](O)[C@@H](C)[C@@H](O)[C@@H](C)[C@H](OC(C)=O)[C@@H]1C	CIPT 140310012	0.1 µg/mL
COc1cc(OC)cc(N(C)Cc2cnc3nc(N)nc(N)c3c2C)c1	NJ211	≤0.13 µg/mL

A second listing of 2 rows from above:

| compound | strain | result |
|---|---|---|
| CC[C@H]1OC(=O)[C@H](C)[C@@H](O[C@H]2C[C@@](C)(OC)[C@@H](OC(C)=O)[C@H](C)O2)[C@H](C)[C@@H](O[C@@H]2O[C@H](C)C[C@H](N(C)C)[C@H]2O)C(C)(O)C[C@@H](C)/C(=N\OCCCOc2ccccc2)[C@H](C)[C@@H](O)[C@]1(C)O | 20092 (clarithromycin-resistant) | 0.78 µg/mL |
| Cc1c(CNc2ccc3c(c2)Cc2ccccc2-3)cnc2nc(N)nc(N)c12 | NJ168 | ≤0.13 µg/mL |